From PMC4108184 come the findings set out here.

Series [1] relates to O=C1O[C@H](COP(=O)(O)O)[C@H](O)[C@H]1O. Description: purified protein. Particulars: 2.5 mM Bicine pH 8.3, 0.2 M NaCl, zinc enzyme.
For series [2], the system named is O=C1O[C@@H](COP(=O)(O)O)[C@H](O)[C@H]1O. Description: purified protein. Conditions: 2.5 mM Bicine pH 8.3, 0.2 M NaCl, zinc enzyme.

For orientation: Km means the substrate concentration at which the rate is half of its maximum. In general, kcat refers to the maximal rate divided by the concentration of active sites. For orientation: kcat/Km means the second-order rate constant that governs catalysis at low substrate concentration. On to “Ms0025 (MS53_0025) (Mycoplasmopsis synoviae 53; H100N)”, for which, in series [1], the Km amounted to 2.7 ± 0.2 mM. Also, in series [2], the Km turned out to be 0.83 ± 0.06 mM, the catalytic constant (kcat) amounted to 0.64 s⁻¹ and the kcat/Km was 770 M⁻¹ s⁻¹.

With “Ms0025 (MS53_0025) (Mycoplasmopsis synoviae 53; K29A)”, in series [1], the Km is reported as 1.4 ± 0.1 mM, the kcat worked out at 1.1 s⁻¹ and the catalytic efficiency (kcat/Km) came to 790 M⁻¹ s⁻¹. Further, in series [2], the Km is given as 0.75 ± 0.07 mM, the kcat came to 0.42 s⁻¹ and the kcat/Km was 560 M⁻¹ s⁻¹.

As for “Ms0025 (MS53_0025) (Mycoplasmopsis synoviae 53; E34Q)”, in series [1], the Km worked out at 0.7 ± 0.1 mM, the kcat worked out at 0.9 s⁻¹ and the kcat/Km is 1300 M⁻¹ s⁻¹. Moreover, in series [2], the Km came to 1.8 ± 0.2 mM, the kcat is 0.58 s⁻¹ and the kcat/Km is 320 M⁻¹ s⁻¹.
